## Percent effect of library compounds

Source: ChEMBL document CHEMBL3988442, “University of Dundee, Small-Polar-MMV Screening Library” (2021).

A: 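Growth of Mycobacterium tuberculosis over 3 days (7H9 medium with glucose and tyloxapol); the read-out is not stated. Tested at 500 µM. The record gives no direction; compounds that gave an IC50 in retests scored well above the rest, so higher reads as more growth inhibition. About 18,000 compounds were tested under these conditions; 7.9% (about 1,400) showed 50% or more at least once.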
B: 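Growth of Mycobacterium tuberculosis over 4 days (cholesterol / DPPC medium with tyloxapol); the read-out is not stated. Concentration: 500 µM. The record gives no direction; compounds that gave an IC50 in retests scored well above the rest, so higher reads as more growth inhibition. Of about 18,000 compounds tested this way, about 900 (5%) reached 50% or more in at least one test.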

The filed quantity is “Percent Effect” (%). The record does not define 0% and 100%; most values in the screen are far below 50% and negative numbers occur (in some assays of this library far below -100). Many other results are left out here, so strong results are more common than in the screen. A dash means the value is not listed here; it may have been measured.

{"compound": "NC(=O)C1CCN(CC(=O)Nc2cccc(F)c2)CC1", "A": 15.01, "B": 10.8}
{"compound": "CN1C(=O)COc2cc(NC(=O)C3CC=CC3)ccc21", "A": -4.962}
{"compound": "Cc1c[nH]c(CN(C)Cc2ccc(N(C)C)nc2)n1", "B": 12.87}
{"compound": "CC(C)N(CCCNC(=O)c1cnccn1)S(C)(=O)=O", "B": -0.05398}
{"compound": "Cc1cc(F)ccc1C(=O)Nc1cccc(CO)n1", "A": -6.475, "B": -11.53}
{"compound": "Cc1cc(C)n(CC(C)NC(=O)c2ccc(N)nc2)n1", "stereo": "stereo unspecified", "A": 21.85}
{"compound": "CC(O)(CN)C1CCCC1", "stereo": "stereo unspecified", "B": -11.27}
{"compound": "CCn1ccc(NC(=O)NCC(C)C)n1", "B": 9.708}
{"compound": "CCOc1cc(C(=O)OCC(=O)NC)cc(Br)c1OC", "A": -22.14}
{"compound": "CCOCCN1CCN(CC(=O)NCCC#N)CC1", "A": 7.217}
{"compound": "COc1ccc2[nH]c(CNC(=O)CNC(N)=O)cc2c1", "A": 21.54}
{"compound": "N#CCOc1ccc(CN)cc1", "A": 9.523, "B": 15.79}
{"compound": "COCCNC(=O)Nc1ccc2c(c1)OC(C)(C)O2", "A": 55.92, "B": 61.95}
{"compound": "CCNC(=O)NC(=O)CN(C)Cc1ccccc1", "A": 50.88}
{"compound": "CC(C)(CO)NC1CC1", "A": 3.606}
{"compound": "NCc1ccnc(OCC(F)(F)F)c1", "A": 77.07, "B": 64.73}
{"compound": "O=C(Nc1nncs1)NC1CCNCC1", "A": -2.188, "B": 8.094}
{"compound": "COc1ccc(C(=O)NCCSc2cnn[nH]2)cc1F", "A": 57.71, "B": 52.44}
{"compound": "CN1CCN(C2CNC2)CC1", "A": 3.989}
{"compound": "CC(O)(CC#N)c1ccccc1", "stereo": "stereo unspecified", "B": -0.2067}
{"compound": "CC1(CN)CCC(=O)N1", "stereo": "stereo unspecified", "B": -3.363}
{"compound": "CC(=O)N1CCc2nn(C)c(=O)n2CC1", "B": 1.178}
{"compound": "OCCC1CCCCN1Cc1cccnc1", "stereo": "stereo unspecified", "A": -51.92}
{"compound": "CC(NC(=O)C(C)(C)C)c1ccncc1", "stereo": "stereo unspecified", "B": 13.33}
{"compound": "CC(=O)N1CCN(Cc2cc(Br)c3c(c2)OCO3)CC1", "A": 57.89}
{"compound": "Cc1cccc2[nH]cc(CO)c12", "A": 24.07, "B": 15}
{"compound": "CC(C)C(=O)NC1CCN(C(=O)c2ccccc2)CC1", "A": -12.84}
{"compound": "CS(=O)(=O)c1cccc(C(=O)NCCCN)c1", "A": -3.881}
{"compound": "Cc1cnc2c(S(=O)(=O)N(C)C)cccc2c1", "B": 6.842}
{"compound": "O=C1C(N2CCNCC2)CCCN1C1CCOCC1", "stereo": "stereo unspecified", "A": -2.4}
{"compound": "CSCc1ccc(C(=O)N2CC(CC(N)=O)C2)cc1", "A": 98.84}
{"compound": "Cc1ccc(NC(=O)CCSCC(N)=O)c(C)c1", "A": 27.7}
{"compound": "Nc1cncc(-c2nccs2)c1", "B": -20.68}
{"compound": "CCc1nc(C#N)c(NCc2ccc3c(c2)OCO3)o1", "A": 79.87, "B": 72.84}
{"compound": "O=C(NC1CCCOc2ccccc21)c1ccncc1", "stereo": "stereo unspecified", "A": 51.07}
{"compound": "COCC(C)(O)CCN", "stereo": "stereo unspecified", "A": 4.407}
{"compound": "CC1c2ccsc2CCN1CCC(=O)NC(N)=O", "stereo": "stereo unspecified", "A": 103.6, "B": 109.2}
{"compound": "C=C(C)CNC(=O)Nc1cnn(CCN(C)C)c1", "A": -6.255}
{"compound": "CC(=O)N1CCC(C(=O)NCCc2sc(C)nc2C)C1", "stereo": "stereo unspecified", "A": -1.083}
{"compound": "Cc1n[nH]c(SCC(=O)NCCc2ccccc2)n1", "A": 24.46}
{"compound": "CNCc1nc(-c2ccc(F)cc2)no1", "A": 29.98, "B": 18.71}
{"compound": "NC(=O)C1CCCN(S(=O)(=O)Cc2ccc(Cl)cc2)C1", "stereo": "stereo unspecified", "B": 8.986}
{"compound": "COCC(C)(C)NC(=O)Cc1cccc(O)c1", "B": 4.35}

Repeated from the top, 3 entries:

Compound,A,B
NC(=O)C1CCN(CC(=O)Nc2cccc(F)c2)CC1,15.01,10.8
CN1C(=O)COc2cc(NC(=O)C3CC=CC3)ccc21,-4.962,-
Cc1c[nH]c(CN(C)Cc2ccc(N(C)C)nc2)n1,-,12.87